Pooled drug test results. Numbers come from NIAID ChemDB, via PubChem.

Shared fields: cytotoxicity tests; read-out: CC50

CCn is the concentration with n% toxicity to the cells. Two numbers with a dash give a range or band. Neighbouring rows are from separate reports. An empty or dashed field is not shown.

| smiles | cells | read by | value |
|---|---|---|---|
| CC(C)[C@H](NC(=O)[C@H](Cc1cccc2ccccc12)CS(=O)(=O)C(C)(C)C)C(=O)N[C@@H](Cc1ccccc1)[C@H](O)[C@H](O)[C@H](Cc1ccccc1)NC(=O)[C@@H](NC(=O)[C@H](Cc1cccc2ccccc12)CS(=O)(=O)C(C)(C)C)C(C)C | PBLC |  | >0.217 µM |
| CS(=O)(=O)C1(c2ccc(C(=O)NC34CC(c5csc(-c6ccccc6)n5)(C3)C4)o2)CC1 | Primary human hepatocytes | absorbance | 8.91 µM |
| C[C@@]1(O)[C@H](O)[C@@H](CO)O[C@H]1n1cnc2c(=O)[nH]c(N)nc21 | Madin-Darby bovine kidney | MTT / crystal violet | >100 µg/mL |
| CCn1c(=O)cc(Sc2ccc(Br)cc2)c2ccccc21 | Huh-Luc-Neo |  | >100 µM |
| COc1ccc(-c2snc(SC)c2C#N)cc1 | L929 |  | 10 µM |
| COc1cc(CC[C@@H](O)C[C@H](O)CCc2cc(OC)c(OC)c(OC)c2)cc(OC)c1OC | 1A2 | XTT | >269.1 µM |
| Cn1c(=O)cc(Sc2ccc(Br)cc2)c2ccccc21 | Huh-Luc-Neo |  | >100 µM |
| COC(=O)[C@H](C)NP(=O)(OC[C@H]1C/C1=C/n1cnc2c(N)nc(N)nc21)Oc1ccccc1 | MEF | neutral red | 211 µM |
| CC(C)[C@H](NC(=O)CCS(=O)(=O)C(C)(C)C)C(=O)N[C@@H](Cc1ccccc1)[C@@H](O)[C@H](O)[C@H](Cc1ccccc1)NC(=O)[C@@H](NC(=O)CCS(=O)(=O)C(C)(C)C)C(C)C | PBLC |  | >1 µM |
| Cc1cc(CCCOc2c(C)cc(-c3noc(C(F)(F)F)n3)cc2C)on1 | Madin-Darby bovine kidney | MTT / crystal violet | >100 µg/mL |
| C=CCCC(=O)NC[C@H](O)c1ccc2c(c1)OCO2 | HepG2 |  | >20 µM |
| Cc1cc(C=O)cc(C)c1Oc1cc(Nc2ccc(C#N)cc2)nc2ccccc12 | T-47D | MTT | 22.9 µM |
| O=C1NC(=O)/C(=C/c2ccc(-c3ccc(Oc4ccccc4)cc3)cc2)S1 | HepG2-NTCP | MTS | >10 µM |
| CC(O)[C@H](NC(=O)[C@H](Cc1cccc2ccccc12)CS(=O)(=O)C(C)(C)C)C(=O)N[C@@H](Cc1ccccc1)[C@@H](O)[C@H](O)[C@H](Cc1ccccc1)NC(=O)[C@@H](NC(=O)[C@H](Cc1cccc2ccccc12)CS(=O)(=O)C(C)(C)C)C(C)O | PBLC |  | >2 µM |
| O=C1CC[C@H](O)c2cccc(O)c21 | NCI-H187 |  | 7.29 µg/mL |
| OC[C@H]1O[C@@H](n2c(Br)nc3cc(Cl)c(Cl)cc32)[C@H](O)[C@@H]1O | CFU-GM |  | 110 µM |
| CSc1nsc(-c2ccccc2)c1C#N | HELA-OHIO |  | 80 µM |
| Cc1cccc(C)c1NCc1cc2ccccc2oc1=O | Ava5 | MTS | 152 µM |
| CC(C)C1=C[C@@H]2[C@H](CC[C@@]2(C)O)[C@@](C)(O)CC1 | 1A2 | XTT | >1050 µM |
| c1ccc(-c2cccc(-c3cc4c(-c5ccnc(NC6CCCC6)n5)ccc(NC5CCCC5)n4n3)c2)cc1 | VERO 76 |  | >40 µM |
| Nc1nc2c(ncn2C=C2CC2CO)c(=O)[nH]1 | MEF | neutral red | >429 µM |
| Cn1c(=O)cc(Sc2ccc(N)cc2)c2cccnc21 | Huh-Luc-Neo |  | >100 µM |
| Nc1nc2c(ncn2COC(CO)CO)c(=O)[nH]1 | CEM-CD+4 |  | 35–72 µM |
| CC(C)(c1cccc(C(=O)NC23CC(c4nc(-c5ccc(Cl)cc5)no4)(C2)C3)c1)S(C)(=O)=O | Primary human hepatocytes | absorbance | 11.94 µM |
| CCc1c(O)c2c(c(O)c1OC)C(=O)C(OC)CC2 | BCA |  | 5.36 µg/mL |
| COc1ccc(Sc2cc(=O)n(C)c3ccccc23)cc1 | Huh-Luc-Neo |  | >100 µM |
| O=C1CC[C@H](O)c2cc(O)cc(O)c21 | NCI-H187 |  | 5.55 µg/mL |
| C[C@@]1(O)[C@H](O)[C@@H](COP(=O)(O)OP(=O)(O)OP(=O)(O)O)O[C@H]1n1ccc2c(N)ncnc21 | HELA OHIO-1 |  | >200 µM |
| CCOC(=O)CCCCCOc1cccc(CN(C(=O)c2ccc(-c3ccc4ccccc4c3)cc2)C(C)C)c1 | RAJI |  | >20 µM |
| CC(C)(C)S(=O)(=O)C[C@@H](Cc1cccc2ccccc12)C(=O)N[C@H](C(=O)N[C@@H](Cc1ccccc1)[C@@H](O)[C@H](O)[C@H](Cc1ccccc1)NC(=O)[C@@H](NC(=O)[C@H](Cc1cccc2ccccc12)CS(=O)(=O)C(C)(C)C)C1CCCC1)C1CCCC1 | PBLC |  | >0.007 µM |
| O=C1NC(=O)/C(=C/c2ccc(-c3ccc(-c4cccc5ccccc45)cc3)cc2)S1 | HepG2-NTCP | MTS | 25.5 µg/mL |
| Nc1nc(=O)c2ncn([C@@H]3O[C@H](CO)[C@@H](O)[C@H]3O)c2c(=O)[nH]1 | CFU-GM |  | 52 µM |
| COc1ccccc1-c1ccc(-c2ccc(/C=C3\SC(=O)NC3=O)cc2)cc1 | HepG2-NTCP | MTS | 9.6 µM |
| O=C1C[C@H](O)[C@@H](O)c2cccc(O)c21 | NCI-H187 |  | 15.33 µg/mL |
| CSc1nsc(-c2ccc(OC(C)(C)C)cc2)c1C#N | HELA-OHIO |  | 40 µM |
| COc1cc(NCc2cc3ccccc3oc2=O)cc(OC)c1OC | Ava5 | MTS | 120 µM |
| Nc1ncnc2c1ncn2C=C1CC1CO | MEF | neutral red | >460 µM |
| C[C@]1(Cn2cc(-c3ccc(F)cc3)nn2)Cn2cc([N+](=O)[O-])nc2O1 | J774 | MTT | >40 µg/mL |
| C=CC(C)(C)c1c2c(c(O)c3ccc(=O)oc13)C(=O)CC(C)(C)O2 | 1A2 | tetrazolium | 37.2 µM |
| CC(=O)Nc1cccc(-c2cc3c(-c4ccnc(NC5CCCC5)n4)ccc(NC4CCCC4)n3n2)c1 | VERO 76 |  | >40 µM |
| COc1c(C)c2c(c(O)c1CC(=O)O)C(=O)OC2 | Madin-Darby bovine kidney | MTT / crystal violet | >100 µg/mL |
| Cc1cccc(OCc2cn(C[C@@]3(C)Cn4cc([N+](=O)[O-])nc4O3)nn2)c1 | J774 | MTT | >40 µg/mL |
| CCOC(=O)CCCCCOc1cccc(CN(C(=O)c2ccc(-c3cccc(S(C)(=O)=O)c3)cc2)C(C)C)c1 | HEK 293 |  | >20 µM |
| C[C@H]1CO[C@@H]2CN3C=C(C(=O)NCc4ccncc4F)C(=O)C(=O)C3C(=O)N12 | CEM-SS | XTT | >0.01 µM |
| Cc1ccc2c(c1)c(Sc1ccc(F)cc1)cc(=O)n2C | Huh-Luc-Neo |  | 10–100 µM |
| FC(F)(F)c1cccc(-c2cc3c(-c4ccnc(NC5CCCC5)n4)ccc(NC4CCCC4)n3n2)c1 | VERO 76 |  | >40 µM |
| CC(C)[C@H](NC(=O)CCS(=O)(=O)c1ccncc1)C(=O)N[C@@H](Cc1ccccc1)[C@@H](O)[C@H](O)[C@H](Cc1ccccc1)NC(=O)[C@@H](NC(=O)CCS(=O)(=O)c1ccncc1)C(C)C | PBLC |  | >1.2 µM |
| Cc1ccc(NCc2cc3ccccc3oc2=O)c(C)c1 | Ava5 | MTS | >200 µM |
| COc1ccc(-c2oc3cc(OC)cc(O)c3c(=O)c2O)cc1 | 1A2 | XTT | >795.4 µM |
| Cc1ccc(SCc2cn(C[C@@]3(C)Cn4cc([N+](=O)[O-])nc4O3)nn2)cc1 | J774 | MTT | >40 µg/mL |
| c1cc(-c2ccc(NC3CCCC3)n3nc(-c4ccc(OCC5CCC5)cc4)cc23)nc(NC2CCCC2)n1 | VERO 76 |  | >100 µM |
| COc1ccc(-c2nc3ccc(-c4ccc5nc(-c6ccc(OC)cc6)[nH]c5c4)cc3[nH]2)cc1 | WI38 human lung fibroblasts | sulforhodamine | 0.71 µg/mL |
| CS(=O)(=O)C1(c2ccc(C(=O)NC34CC(c5nc(-c6ccccc6)cs5)(C3)C4)o2)CC1 | Primary human hepatocytes | absorbance | 12.38 µM |
| COc1ccc2c(c1)[nH]c1cc(OC)c(C=O)cc12 | 1A2 | tetrazolium | 232 µM |
| CC(C)N(Cc1cccc(OCCCCCC(=O)OC(=O)O)c1)C(=O)c1ccc(-c2ccc(Cl)c(Cl)c2)cc1 | RAJI |  | >20 µM |
| C[C@]1(Cn2cc(COc3ccc(C(F)(F)F)cc3)nn2)Cn2cc([N+](=O)[O-])nc2O1 | J774 | MTT | >40 µg/mL |
| CCOC(=O)CCCCCOc1cccc(CN(C(=O)c2ccc(-c3ccc4c(c3)OCO4)cc2)C(C)C)c1 | BJ |  | >20 µM |
| O=c1oc2ccccc2cc1CNc1cccc([N+](=O)[O-])c1 | Ava5 | MTS | >200 µM |
| O=C1NC(=O)/C(=C/c2ccc(-c3ccc4c5ccccc5c5ccccc5c4c3)cc2)S1 | HepG2-NTCP | MTS | >10 µM |
| CC(C)[C@H](NC(=O)[C@H](Cc1ccccc1)NS(C)(=O)=O)C(=O)N[C@@H](Cc1ccccc1)[C@@H](O)[C@H](O)[C@H](Cc1ccccc1)NC(=O)[C@@H](NC(=O)[C@H](Cc1ccccc1)NS(C)(=O)=O)C(C)C | PBLC |  | >0.5 µM |
| CC(C)N(Cc1cccc(OCCCCCC(=O)OC(=O)O)c1)C(=O)c1ccc(-c2cccc(S(C)(=O)=O)c2)cc1 | HEK 293 |  | >20 µM |
| Nc1nc(NC2CC2)c2ncn(C=C3CC3CO)c2n1 | MEF | neutral red | 220 µM |
| CC(C)(C)S(=O)(=O)C[C@@H](Cc1cccc2ccccc12)C(=O)N[C@@H](CCC(=O)O)C(=O)N[C@@H](Cc1ccccc1)[C@@H](O)[C@H](O)[C@H](Cc1ccccc1)NC(=O)[C@H](CCC(=O)O)NC(=O)[C@H](Cc1cccc2ccccc12)CS(=O)(=O)C(C)(C)C | PBLC |  | >1 µM |

For reference, 6 entries again:

smiles	cells	read by	value
CS(=O)(=O)C1(c2ccc(C(=O)NC34CC(c5nc(-c6ccccc6)cs5)(C3)C4)o2)CC1	Primary human hepatocytes	absorbance	12.38 µM
CSc1nsc(-c2ccc(OC(C)(C)C)cc2)c1C#N	HELA-OHIO		40 µM
CS(=O)(=O)C1(c2ccc(C(=O)NC34CC(c5csc(-c6ccccc6)n5)(C3)C4)o2)CC1	Primary human hepatocytes	absorbance	8.91 µM
Cc1ccc(SCc2cn(C[C@@]3(C)Cn4cc([N+](=O)[O-])nc4O3)nn2)cc1	J774	MTT	>40 µg/mL
Cc1ccc(NCc2cc3ccccc3oc2=O)c(C)c1	Ava5	MTS	>200 µM
CCOC(=O)CCCCCOc1cccc(CN(C(=O)c2ccc(-c3ccc4c(c3)OCO4)cc2)C(C)C)c1	BJ		>20 µM